Data reported in the NIST ThermoML archive (doi:10.1021/acs.jced.8b00590).

Experiment: xn = mol fraction of the nth substance listed
Conditions: 101.3 kPa, Liquid; for mass density: Vibrating tube method; for viscosity: Falling or rolling sphere viscometry

O=S(=O)(F)[N-]S(=O)(=O)F.[Li+] [lithium bis(fluorosulfonyl)imide] + CCCCC#N
Conditions	mass density, 283.15 K [kg/m3]	mass density, 293.15 K [kg/m3]	mass density, 303.15 K [kg/m3]	mass density, 313.15 K [kg/m3]	mass density, 323.15 K [kg/m3]	mass density, 333.15 K [kg/m3]	viscosity, 293.15 K [mPa·s]	viscosity, 313.15 K [mPa·s]	viscosity, 333.15 K [mPa·s]
x1 = 0.0499	–	–	–	–	–	–	1.336 ± 0.068	0.9852 ± 0.05	0.7657 ± 0.039
x1 = 0.1	927.9 ± 2.8	919.1 ± 2.8	910.3 ± 2.7	901.5 ± 2.7	892.6 ± 2.7	883.8 ± 2.7	2.521 ± 0.041	1.723 ± 0.024	1.276 ± 0.065
x1 = 0.1997	1053.5 ± 3.2	1044.4 ± 3.1	1035.3 ± 3.1	1026.2 ± 3.1	1017.1 ± 3.1	1008.1 ± 3	11.67 ± 0.19	6.606 ± 0.091	4.215 ± 0.053
x1 = 0.2999	1166.4 ± 3.5	1157.2 ± 3.5	1148 ± 3.5	1138.8 ± 3.4	1129.7 ± 3.4	1120.6 ± 3.4	41.82 ± 0.57	21.07 ± 0.3	12.21 ± 0.17
x1 = 0.3443	–	–	–	–	–	–	65.03 ± 0.95	30.47 ± 0.45	16.88 ± 0.24
x1 = 0.4076	1277.3 ± 3.8	1267.8 ± 3.8	1258.4 ± 3.8	1249 ± 3.8	1239.8 ± 3.7	1230.6 ± 3.7	123.64 ± 4	53.2 ± 0.73	27.5 ± 0.4
x1 = 0.4999	–	–	–	–	–	–	382.17 ± 26	117.83 ± 3.8	59.39 ± 0.89

± gives the expanded uncertainty stated by the source.
